Pooled drug test results. Numbers come from NIAID ChemDB, via PubChem.

All rows: whole-cell or culture tests; species: Cowpox virus; read-out: EC50

Blank or dashed fields: not listed here.

SMILES	strain	cell line	result
Cc1cn([C@@H]2O[C@H](CO)[C@@H](O)[C@@H]2O)c(=O)[nH]c1=O	Brighton	C1271	1 µM
CC(=O)N[C@H]1C[C@@H](n2cnc3c(N)ncnc32)[C@H](O)[C@@H]1O	-	HFF	>100 µg/mL
Nc1ncnc2c1ncn2[C@@H]1O[C@H](CO)[C@@H](O)[C@@H]1O	Brighton	C1271	0.9 µM
Nc1ccn(C[C@@H](CO)OCP(=O)(O)O)c(=O)n1	-	LLC-MK2	1.2 µg/mL
CCCCCCCCCCCCCCCCOCCCOP(=O)(O)COCCn1cnc2c(=O)[nH]c(N)nc21	Brighton	HFF	0.12 µM
Nc1nccc2c1ncn2[C@@H]1C=C(CO)[C@@H](O)[C@H]1O	-	LLC-MK2	>100 µg/mL
Cc1cc(C)nc(NS(=O)(=O)c2ccc(N=C3C(=O)Nc4ccc(Cl)cc43)cc2)n1	-	HFF	200 µM
Nc1nc(=O)n([C@@H]2O[C@H](CO)[C@@H](O)[C@@H]2O)cc1F	Brighton	C1271	0.11 µM
O=c1[nH]cnc2c1ncn2[C@@H]1C=C(CO)[C@@H](O)[C@H]1O	CPX	MK2	>100 µg/mL
N=c1c2ncn([C@@H]3O[C@H](CO)[C@@H](O)[C@H]3O)c2ncn1OCc1cc(F)cc(F)c1	-	VERO	0.71 µg/mL
Nc1ccn(C[C@@H](CO)OCP(=O)(O)O)c(=O)n1	Brighton	VERO	53 µM
Nc1nc(=O)n([C@@H]2C=C(CO)[C@@H](O)[C@H]2O)cc1F	CPX	MK2	0.43 µg/mL
O=c1[nH]c(=O)n([C@H]2C[C@H](O)[C@@H](CO)O2)cc1I	Brighton	VERO	14 µM
Cc1cc(C)nc(NS(=O)(=O)c2ccc(N=C3C(=O)Nc4ccc(F)cc43)cc2)n1	-	HFF	>60 µM
O=c1[nH]c(=O)n([C@@H]2O[C@H](CO)[C@@H](O)[C@@H]2F)cc1I	Brighton	VERO	28 µM
CC(C)(C)C(=O)OCOP(=O)(COCCn1cnc2c(N)ncnc21)OCOC(=O)C(C)(C)C	-	VERO	75.5 µg/mL
Cc1cn([C@@H]2O[C@H](CO)[C@@H](O)[C@@H]2F)c(=O)[nH]c1=O	Brighton	C1271	0.22 µM
Cc1cc(C)nc(NS(=O)(=O)c2ccc(N=C3C(=O)Nc4ccccc43)cc2)n1	-	HFF	128 µM

2 of the rows above, restated:

{"SMILES": "Cc1cn([C@@H]2O[C@H](CO)[C@@H](O)[C@@H]2F)c(=O)[nH]c1=O", "strain": "Brighton", "cell line": "C1271", "result": "0.22 µM"}
{"SMILES": "Nc1ccn(C[C@@H](CO)OCP(=O)(O)O)c(=O)n1", "strain": "Brighton", "cell line": "VERO", "result": "53 µM"}

ECn is the concentration giving n% inhibition of infection, replication or growth. Lines come from different laboratories, so protocols vary.